Compound potency records, mixed from different reports. Data source: NIAID ChemDB in PubChem.

Common to all: tests on isolated targets; organism: HIV-1; target: Reverse transcriptase; endpoint: inhibition

Inhibition is in % at the dose shown (toxicity tests: loss of growth or viability).

structure	strain or isolate	method	tested at	value
NOCc1c(F)cccc1Cl		nucleotide incorporation	20 µg/mL	0%
Cc1ccc2c(c1)N(C(C)C)C(=O)c1ccnnc1O2		ELISA	33 µM	44%
C=C(C)C1CC[C@]2(C(=O)O)CC[C@]3(C)C(CCC4[C@@]5(C)C[C@@H](C(=O)[O-])[C@H](O)C(C)(C)C5CC[C@]43C)C12		RT activity	200 µg/mL	76.8%
CCCCCC(=O)OCCCC[C@H]1CCCCCC[C@@H](C)NC(N)=[NH+]1		RT activity / radiometric	40 µM	12.5%
C=C(C)C1CC[C@@H]2CC[C@]3(C)C(CCC4[C@@]5(C)CC[C@H](O)C(C)(C)C5CC[C@]43C)C12		RT activity	200 µg/mL	84.4%
Nc1ncnc2c1ncn2C1OC(CO)CC1OP(=O)(O)OCC1CC(OP(=O)(O)OCC2OC(n3cnc4c(N)ncnc43)C(O)C2O)C(n2cnc3c(N)ncnc32)O1	IIIB		10 µM	8%
CC(C)(C)[Si](C)(C)OCCCC[C@H]1CCCCCC[C@@H](CCCCO[Si](C)(C)C(C)(C)C)[NH+]=C(N)N1.F[B-](F)(F)F		RT activity / radiometric	40 µM	5.8%
COc1ccc2[nH]c(=O)c(CNC3CCCCC3)cc2c1		RT activity / absorbance	20 µM	-11.4%
CC1=CCC[C@H]2[C@](C)(CC3=CC(=O)C=C(O)C3=O)[C@@H](C)CC[C@]12C			50 µg/mL	54%
O=c1[nH]c2ccccc2cc1CNC1CCCC1		RT activity / absorbance	20 µM	-16.7%
O=C(NCCc1ccccc1)Nc1nncs1		nucleotide incorporation	10 µg/mL	14%
S=C(NCCc1ccccn1)Nc1cccnn1			3.3 µM	6%
CCCCCCCCCC(=O)OCCCC[C@H]1CCCCCC[C@@H](C)NC(N)=[NH+]1		RT activity / radiometric	40 µM	30.7%
COc1ccc(-c2csc(N3C(=N)SC4C3=NN(c3ccccc3)C4c3ccc(C)cc3)n2)cc1		RT activity / absorbance	100 µg/mL	89.8%
Nc1ncnc2c1ncn2[C@@H]1O[C@H](COP(=O)([O-])O)[C@@H](O)[C@H]1OP(=O)([O-])OC[C@@H]1C[C@@H](OP(=O)([O-])OC[C@@H]2C[C@@H](O)[C@H](n3cnc4c(N)ncnc43)O2)[C@H](n2cnc3c(N)ncnc32)O1	IIIB		10 µM	17%
C[C@@H]1CCCCCC[C@H](CCCCO)[NH+]=C(N)N1		RT activity / radiometric	10 µM	0%
CCN1C(=O)c2ccnnc2N(CC)c2ccc(C)cc21			33 µM	45%
Cc1nc(NC(=O)NCCc2ccccc2)sc1C		nucleotide incorporation	0.1 µg/mL	34%
CCOC(=O)CN1C(=O)c2ccnnc2Oc2c(C)cc(C)cc21		ELISA	330 µM	55%
O=C(c1ccccc1)N(Cc1cc2ccccc2[nH]c1=O)C1CCCC1		RT activity / absorbance	20 µM	11.3%
CC(C)Nc1cccnc1N1CCN(C(=O)c2nc3ccccc3[nH]2)CC1		nucleotide incorporation	100 µM	64–78%
CCN1c2ccccc2N(C)C(=O)c2cncnc21	IIIB	nucleotide incorporation / radiometric	30 µM	26%
S=C(NCCc1ccccn1)Nc1ncccn1			3.3 µM	6%
CC(C)(O)CCc1c(O[C@@H]2O[C@H](CO)[C@@H](O)[C@H](O)[C@H]2O)cc2c(c1O)C(=O)[C@H](O)[C@@H](c1ccc(O)c(O)c1)O2		nucleotide incorporation / radiometric	200 µg/mL	0%
COc1ccc2[nH]c(=O)c(CNC3CC3)cc2c1		RT activity / absorbance	20 µM	-30%
CC(C)=CCc1c(O[C@@H]2O[C@H](CO)[C@@H](O)[C@H](O)[C@H]2O)cc2oc(-c3ccc(O)c(O)c3)c(O)c(=O)c2c1O		nucleotide incorporation / radiometric	200 µg/mL	34%
CCN1c2ccc(C)cc2N(C)C(=O)c2ccnnc21			33 µM	43%
Nc1ncnc2c1ncn2C1OC(COP(=O)(O)OC2CC(COP(=O)(O)OC3CC(CO)OC3n3cnc4c(N)ncnc43)OC2n2cnc3c(N)ncnc32)CC1O	IIIB		10 µM	22%
CCCN1c2ccccc2N(C)C(=O)c2cc(Cl)nnc21			33 µM	31%
COc1ccc(-c2csc(N3C(=N)SC4C3=NN(c3ccccc3)C4c3ccc(Cl)cc3)n2)cc1		RT activity / absorbance	100 µg/mL	69.84%
O=C(O)c1cn([C@@H]2O[C@H](CO)[C@@H](O)[C@H]2O)c2ccc(Cl)cc2c1=O			100 µM	0%
COc1cc(O)c2c(c1)OC(c1ccc(Oc3cc(-c4cc(=O)c5c(O)cc(O)cc5o4)ccc3O)cc1)CC2=O		nucleotide incorporation / radiometric	200 µg/mL	93.4%
C/C(=C\CC[C@@H](C)[C@H]1CC[C@@]2(C)C1=CC[C@H]1[C@@]3(C)CCC(=O)C(C)(C)[C@@H]3CC[C@@]12C)C(=O)O		nucleotide incorporation / radiometric	200 µg/mL	96.3%
CC(C)Nc1cccnc1N(C)N1CCN(C(=O)c2cc3ccccc3[nH]2)CC1		nucleotide incorporation	100 µM	85–97%
O=c1[nH]c2ccccc2cc1CNC1CCCCC1		RT activity / absorbance	20 µM	-20.8%
CCCN1C(=O)c2ccnnc2N(CCC)c2ccccc21			33 µM	32%
CCN1C(=O)c2cncnc2N(CC)c2ccccc21	IIIB	nucleotide incorporation / radiometric	30 µM	39%
Cc1c(Cc2ccccc2)nc(SCc2ccc(C(C)(C)C)cc2)[nH]c1=O		ELISA	100 µM	0%
COc1ccc(-c2csc(N3C(=N)SC4C3=NN(c3ccccc3)C4c3ccccc3)n2)cc1		RT activity / absorbance	100 µg/mL	84.67%
Cc1cccc2sc(NC(=O)NCCc3ccccc3)nc12		nucleotide incorporation	10 µg/mL	24%
COc1cccc2cc(CNC3CCCCC3)c(=O)[nH]c12		RT activity / absorbance	20 µM	-32.8%
Cc1cccc(CSc2nc(Cc3ccccc3)c(C)c(=O)[nH]2)c1		ELISA	100 µM	0%
O=C(NCCc1ccccc1)Nc1ccc(Cl)cc1		nucleotide incorporation	10 µg/mL	35%
COC1=CC(=O)C(C[C@]2(C)[C@@H](C)CC[C@]3(C)C(C)=CCC[C@@H]23)=C(O)C1=O			50 µg/mL	94%
O=C(O)c1cn([C@@H]2O[C@H](CO)[C@@H](O)[C@H]2O)c2ccc(Br)cc2c1=O			100 µM	0%
Cc1ccnc(NC(=O)NCCc2ccccc2)n1		nucleotide incorporation	10 µg/mL	9%
Nc1ncnc2c1ncn2C1OC(COP(=O)(O)OC2CC(COP(=O)(O)OC3C(O)C(CO)OC3n3cnc4c(N)ncnc43)OC2n2cnc3c(N)ncnc32)CC1O	IIIB		10 µM	19%
C/C(=C\CC[C@@H](C)[C@H]1CC[C@@]2(C)C1=CC[C@H]1[C@@]3(C)CC[C@H](O)C(C)(C)[C@@H]3CC[C@@]12C)C(=O)O		nucleotide incorporation / radiometric	200 µg/mL	38.1%
C[C@@H]1CCCCCC[C@H](CCCCOCc2ccccc2)[NH+]=C(N)N1		RT activity / radiometric	40 µM	29.3%
C=CCN1C(=O)c2ccnnc2Oc2c(C)cc(C)cc21		ELISA	33 µM	45%
C=CCSc1nc(Cc2ccccc2)c(C)c(=O)[nH]1		ELISA	100 µM	0%
CC(C)Nc1cccnc1N1CCN(C(=O)c2cc3cc(OCC(=O)O)ccc3[nH]2)CC1		nucleotide incorporation	100 µM	78–95%
CN1C(=O)c2cc(Cl)nnc2N(C2CC2)c2ccccc21		ELISA	330 µM	72%
CCCN1C(=O)c2ccnnc2Oc2ccc(C(F)(F)F)cc21		ELISA	330 µM	27%
CN1C(=O)c2cc(Cl)nnc2N(C2CC2)c2ncccc21		ELISA	330 µM	64%
C[C@H]1/C=C/[C@@]2(C)CC[C@@H](C(C)(C)O)[C@@H]2[C@@H](O)C[C@](C)(O)/C=C/C1		nucleotide incorporation / radiometric	40 µM	64%

A second listing of 7 rows from above:

structure | strain or isolate | method | tested at | value
CN1C(=O)c2cc(Cl)nnc2N(C2CC2)c2ncccc21 |  | ELISA | 330 µM | 64%
COc1ccc(-c2csc(N3C(=N)SC4C3=NN(c3ccccc3)C4c3ccc(Cl)cc3)n2)cc1 |  | RT activity / absorbance | 100 µg/mL | 69.84%
Cc1c(Cc2ccccc2)nc(SCc2ccc(C(C)(C)C)cc2)[nH]c1=O |  | ELISA | 100 µM | 0%
Cc1ccc2c(c1)N(C(C)C)C(=O)c1ccnnc1O2 |  | ELISA | 33 µM | 44%
Nc1ncnc2c1ncn2C1OC(COP(=O)(O)OC2CC(COP(=O)(O)OC3C(O)C(CO)OC3n3cnc4c(N)ncnc43)OC2n2cnc3c(N)ncnc32)CC1O | IIIB |  | 10 µM | 19%
CCN1C(=O)c2ccnnc2N(CC)c2ccc(C)cc21 |  |  | 33 µM | 45%
Cc1cccc2sc(NC(=O)NCCc3ccccc3)nc12 |  | nucleotide incorporation | 10 µg/mL | 24%

Neighbouring rows are from separate reports. An empty or dashed field is not shown. Two numbers with a dash give a range or band.